Measured values from several laboratories, pooled; numbers as filed in NIAID ChemDB.

Common to all: tests in culture; species: HIV-1; read-out: EC50

An empty or dashed field is not shown.

smiles | strain | mutations | cell line | read by | setting | result
Cc1nc(CCCCCCC(=O)c2ccccc2)n2nc(NCCCCCCN)ccc12 | LAI | - | CEM + CEM TK- | RT activity | - | 9 µM
O=C(Nc1sccc1S(=O)(=O)c1ccccc1)C(F)(F)F | IIIB | - | CEM + CEM/O | cytopathic effect / MTT | - | >8 µg/mL
Cc1ncc(-c2cnc(OCC3CCNCC3)c(F)c2)c(N2CCC(C)(C)CC2)c1[C@H](OC(C)(C)C)C(=O)O | NL4-3 | - | MT-2 | luminescence | - | 0.116 µM
O=C(C(=O)N1CCN(C(=O)c2ccc(Br)o2)CC1)c1c[nH]c2c(F)ccc(F)c12 | - | - | HeLa + HELA CD4+/CCR5 | luciferase | - | <10 µM
Cc1ccc(S(=O)(=O)c2ccsc2N)cc1 | IIIB | - | CEM + CEM/O | cytopathic effect / MTT | - | 12.7 µg/mL
Cc1cc(S(N)(=O)=O)ccc1NC(=O)COc1ccc(Cl)cc1C(=O)c1cc(F)cc(C(F)(F)F)c1 | IIIB | RT-K103N V108I | HELA MAGI | luciferase | - | 0.0036 µM
COc1cnc(-n2cnc(C)n2)c2c1c(C(=O)C(=O)N1CCN(C(=O)c3ccccc3)CC1)cn2COP(=O)(O)O | NL4-3 | M426P | U-87 | luciferase | - | 0.0099 µM
CC(=O)c1c(C)nc(-c2ccccc2)nc1NC(=O)c1ccccc1 | 2AG | - | HeLa | GFP / fluorescence | - | >50 µM
CC(=O)Nc1sc([N+](=O)[O-])cc1S(=O)(=O)c1ccc(F)cc1 | IIIB | - | CEM + CEM/O | cytopathic effect / MTT | - | 0.52 µg/mL
CN1c2ccccc2C2C1C=C(C#N)C(=O)N2c1ccc([N+](=O)[O-])cc1 | 10076-4 | - | HeLa | GFP / fluorescence | - | 0.14 µM
CC(C)OC(=O)C[C@H](N[P@](=O)(CO[C@H](C)Cn1cnc2c(N)ncnc21)NC(C)(C)C(=O)OC(C)C)C(C)C | - | - | MT4-GFP | fluorescence | 50% human serum | >2000 µM
Cc1ncc(-c2ccc(OCCn3ccnc3)cn2)c(N2CCC(C)(C)CC2)c1[C@H](OC(C)(C)C)C(=O)O | NL4-3 | - | MT-2 | luminescence | - | 0.134 µM
O=C(Nc1sccc1S(=O)(=O)c1ccc(Cl)cc1)C(F)(F)F | IIIB | - | CEM + CEM/O | cytopathic effect / MTT | - | >1.6 µg/mL
C[C@H]1CO[C@]23CCC[C@H]2N2C=C(C(=O)NCc4c(F)cc(F)nc4F)C(=O)C(=O)C2CN13 | IIIB | - | CEM-SS | XTT | - | 0.0838 µM
Cc1ncc(-c2cnc(SCCc3ccc(F)cc3)c(F)c2)c(N2CCC(C)(C)CC2)c1[C@H](OC(C)(C)C)C(=O)O | NL4-3 | - | MT-2 | luminescence | - | 0.0089 µM
CCCCCC1CN(C(=O)c2ccccc2)CCN1C(=O)C(=O)c1c[nH]c2c(C(=O)OC)cccc12 | - | - | HeLa + HELA CD4+/CCR5 | luciferase | - | <10 µM
CCC(=O)c1ccc(F)c([C@@H]2C[C@@H]2NC(=O)Nc2ccc(C#N)cn2)c1O | LAI | NNRTI-resistant (RT K101E/K103N) | TZM-bl | β-galactosidase / luminescence | - | 0.0381 µM
Nc1cccc(C(=O)N2CCN(C(=O)C(=O)c3c[nH]c4cccc(F)c34)CC2)c1 | - | - | HeLa + HELA CD4+/CCR5 | luciferase | - | <10 µM
Cc1cccc(C)c1OCCNc1ccc(-c2cnc(C)c([C@H](OC(C)(C)C)C(=O)O)c2N2CCC(C)(C)CC2)cn1 | NL4-3 | - | MT-2 | luminescence | - | 0.0025 µM
Cc1cccc(S(=O)(=O)c2c(C(=O)NCCO)[nH]c3ccc(Cl)cc23)c1 | BAL R5 | - | Macrophage + Macrophages | p24 | - | 0.08 µM
Cc1nc(CCCCCCC(=O)c2ccccc2)n2nc(NCCCCCCNCc3cn([C@H]4C=C[C@@H](CO)O4)c(=O)[nH]c3=O)ccc12 | LAI | - | CEM + CEM TK- | RT activity | - | 9 µM
CC(C)OC(=O)[C@H](C)CNP(=O)(CO[C@H](C)Cn1cnc2c(N)ncnc21)N[C@H](C)C(=O)OC(C)C | - | - | MT4-GFP | fluorescence | 50% human serum | 908 µM
O=C1Nc2sccc2S(=O)(=O)c2ccccc21 | IIIB | - | CEM + CEM/O | cytopathic effect / MTT | - | >200 µg/mL
COc1cc(-c2ccc(N=Nc3ccc4c(S(=O)(=O)O)cc(S(=O)(=O)O)c(N)c4c3O)c(OC)c2)ccc1N=Nc1ccc2c(S(=O)(=O)O)cc(S(=O)(=O)O)c(N)c2c1O | RF | - | CEM + CEM-SS | RT activity | - | 1.7 µM
CC(C)COC(=O)N[C@@H](Cc1ccccc1)C(=O)N[C@H](Cc1ccc2ccccc2c1)C(=O)N1CCC(C(=O)O[C@@H](CC(C)C)C(=O)N[C@H](C(=O)O)C(C)C)CC1 | BRU | - | HT4 + HT4-6C | plaque count | - | 11.5 µM
CC=CCOc1cc(NC(=S)c2ccoc2C)ccc1OC | NL4-3 | RT-K103N | CEM + CEM-SS | cytopathic effect / XTT | - | 3.2 µM
C[C@H]1CO[C@@H]2CN3C=C(C(=O)NCc4nnc5n4CCCC5)C(=O)C(=O)C3C(=O)N12 | IIIB | - | CEM-SS | XTT | - | 0.0304 µM
CCC1CN(C(=O)C(=O)c2c[nH]c3c(C(=O)OC)cccc23)CCN1C(=O)c1ccccc1 | - | - | HeLa + HELA CD4+/CCR5 | luciferase | - | <10 µM
Cc1ncc(-c2ccc(OC[C@H](C)Oc3ccccc3)cn2)c(N2CCC(C)(C)CC2)c1[C@H](OC(C)(C)C)C(=O)O | NL4-3 | - | MT-2 | luminescence | - | 0.001 µM
Cc1occc1C(=S)Nc1ccc(Cl)c(C(=O)OCC2CC2)c1 | NL4-3 | RT-L74V | CEM + CEM-SS | cytopathic effect / XTT | - | 0.05 µM
CC(C)OC(=O)CCNP(=O)(CO[C@H](C)Cn1cnc2c(N)ncnc21)N[C@@H](C)C(=O)OC(C)C | - | - | MT4-GFP | fluorescence | 10% human serum | 26.4 µM
CCCC(CF)Oc1ccc(-c2cnc(C)c([C@H](OC(C)(C)C)C(=O)O)c2N2CCC(C)(C)CC2)nc1 | NL4-3 | - | MT-2 | luminescence | - | 0.0021 µM
C=CCOc1cc(NC(=S)c2ccoc2C)ccc1OC | IIIB | - | CEM + CEM-SS | cytopathic effect / XTT | - | 0.3 µM
O=C(C(=O)N1CCN(C(=O)c2cc(Br)ccc2S)CC1)c1c[nH]c2cccc(F)c12 | - | - | HeLa + HELA CD4+/CCR5 | luciferase | - | <10 µM
O=C(NNCCO)c1[nH]c2ccc(Cl)cc2c1S(=O)(=O)c1ccccc1 | BAL R5 | - | Macrophage + Macrophages | p24 | - | 0.9 µM
CC(C)(C)OC(=O)Nc1cccc(C(=O)N2CCN(C(=O)C(=O)c3c[nH]c4cccc(Cl)c34)CC2)c1 | - | - | HeLa + HELA CD4+/CCR5 | luciferase | - | <10 µM
Cc1ccccc1S(=O)(=O)c1c(C(=O)NCCO)[nH]c2ccc(Cl)cc12 | BAL R5 | - | Macrophage + Macrophages | p24 | - | 2 µM
C[C@H]1CO[C@@H]2CN3C=C(C(=O)NCc4nnc5ccc(Cl)nn45)C(=O)C(=O)C3C(=O)N12 | IIIB | - | CEM-SS | XTT | - | 0.0433 µM
C[C@H](Cn1cnc2c(N)ncnc21)OCP(=O)(O)O | - | HX/3AZT | TZM-bl | - | - | 5.8 µM
CC(C)OC(=O)CCNP(=O)(CO[C@H](C)Cn1cnc2c(N)ncnc21)N[C@@H](C)C(=O)OC1CCC1 | - | - | MT4-GFP | fluorescence | 50% human serum | 488.3 µM
C[C@H]1CO[C@@H]2CN3C=C(C(=O)NCc4nc5ccccc5s4)C(=O)C(=O)C3C(=O)N12 | IIIB | - | CEM-SS | XTT | - | 0.0334 µM
COC(=O)c1cccc2c(C(=O)C(=O)N3CCN(C(=O)c4ccccc4)C[C@@H]3C)c[nH]c12 | - | - | HeLa + HELA CD4+/CCR5 | luciferase | - | <10 µM
C[C@H]1[C@H](O)[C@@H](C)/C=C/C=C/C=C/C=C/C=C/C=C/C=C/[C@H](O[C@@H]2O[C@H](C)[C@@H](O)[C@H](N)[C@@H]2O)C[C@@H]2O[C@](O)(C[C@@H](O)C[C@@H](O)CC[C@H](O)[C@@H](O)C[C@@H](O)CC(=O)O[C@H]1C)C[C@H](O)[C@H]2C(=O)O | 92UG001 CLADE D X4/X5 (SI) | - | PBMC | p24 / RT activity | - | 1.7 µM
CSC1=NC2(C[C@@H]2c2ccccc2)C(=O)N1 | IIIB | - | MT-4/C8166 + MT-4 | MTT | - | 2.1 µg/mL
CC(C)COC(=O)[C@H](C)NP(=O)(CO[C@H](C)Cn1cnc2c(N)ncnc21)NC[C@H](C)C(=O)OC(C)C | - | - | MT4-GFP | fluorescence | 10% human serum | 16.6 µM
CCCc1cc(=O)oc2c3c(c4c(c12)OC(C)(C)CC4)O[C@H](C)[C@@H](C)C3=O | BaL | - | Macrophage + Macrophages | cytopathic effect / XTT | - | 2.19 µM
O=C(NCCO)c1[nH]c2ccc(Cl)cc2c1S(=O)(=O)c1ccccc1 | BAL R5 | - | Macrophage + Macrophages | p24 | - | 0.4 µM
C=CCO/N=C/c1cc(NC(=S)c2ccoc2C)ccc1Cl | 4xAZT/L100I(RT-D67N K70R T215Y K219Q L100I) | RT-D67N K70R L100I T215Y K219Q | CEM + CEM-SS | cytopathic effect / XTT | - | 1.3 µM
Cc1cn([C@H]2C=C[C@@H](CO)O2)c(=O)[nH]c1=O | LAI | - | CEM + CEM TK- | RT activity | - | 30 µM
CCCCCCOC(=O)C(C)(C)NP(=O)(CO[C@H](C)Cn1cnc2c(N)ncnc21)N[C@H](CC(=O)OC(C)C)C(C)C | - | - | MT4-GFP | fluorescence | 50% human serum | 5.7 µM
O=c1[nH]c(=O)n([C@H]2C=C[C@@H](CO)O2)cc1CO | LAI | - | CEM + CEM TK- | RT activity | - | 25 µM
C[C@H]1CO[C@@H]2CN3C=C(C(=O)NCc4cn5cc(Cl)sc5n4)C(=O)C(=O)C3C(=O)N12 | IIIB | - | CEM-SS | XTT | - | 0.0289 µM
CCCCCCOC(=O)C(C)(C)NP(=O)(CO[C@H](C)Cn1cnc2c(N)ncnc21)N[C@@H](CC(=O)OC(C)C)C(C)C | - | - | MT4-GFP | fluorescence | 10% human serum | 19.1 µM
CC(=O)Nc1sc(Cl)cc1S(=O)(=O)c1ccccc1[N+](=O)[O-] | IIIB | - | CEM + CEM/O | cytopathic effect / MTT | - | >40 µg/mL
CCCCCCCCCCCCCCCC(=O)OCC(COP(=O)(O)OCCNC(=O)CCC(=O)N[C@H](Cc1ccccc1)C(=O)N[C@H](Cc1cccc2ccccc12)C(=O)N1CCC(C(=O)O[C@@H](CC(C)C)C(=O)N[C@H](C(N)=O)C(C)C)CC1)OC(=O)CCCCCCCCCCCCCCC | BRU | - | HT4 + HT4-6C | plaque count | - | 15.3 µM
C[C@@H]1CCO[C@H]2Cn3cc(C(=O)NCc4ccc(F)cc4F)c(=O)c(O)c3C(=O)N12 | NL4-3 | R263K | TZM-bl | luciferase | - | 0.0022 µM
CN1N=C(N)c2cn([C@@H]3O[C@H](COP(=O)(O)O)[C@@H](O)[C@H]3O)c3ncnc1c23 | G-762 | - | CEM + CEM-SS | syncytia | - | 0.035 µM
Cc1ccc(C)n1-c1ccc(C(=O)O)c(O)c1 | 92UG092 X4 CLADE A | - | PBMC/5.25M7 | luciferase / cell fusion | - | 10.59 µM
Cc1occc1C(=S)Nc1ccc(Cl)c(/C=N/OC(C)(C)C)c1 | NL4-3 | RT-A98G | CEM + CEM-SS | cytopathic effect / XTT | - | 0.7 µM
Cc1cc(C)cc(Sc2c(C(=O)NCCO)[nH]c3ccc(Cl)cc23)c1 | BAL R5 | - | Macrophage + Macrophages | p24 | - | 0.8 µM
Cc1occc1C(=S)Nc1ccc(Cl)c(C(=O)OCC(C)C)c1 | RF | - | CEM + CEM-SS | cytopathic effect / XTT | - | 0.012 µM
COC[C@@H](c1ccc(C(F)(F)F)cc1)N1CCN(C2(C)CCN(C(=O)c3c(C)ncnc3C)CC2)C[C@@H]1C | R14 | - | TZM-bl | - | - | 0.0037 µM

Again, the opening 7 rows:

smiles,strain,mutations,cell line,read by,setting,result
Cc1nc(CCCCCCC(=O)c2ccccc2)n2nc(NCCCCCCN)ccc12,LAI,-,CEM + CEM TK-,RT activity,-,9 µM
O=C(Nc1sccc1S(=O)(=O)c1ccccc1)C(F)(F)F,IIIB,-,CEM + CEM/O,cytopathic effect / MTT,-,>8 µg/mL
Cc1ncc(-c2cnc(OCC3CCNCC3)c(F)c2)c(N2CCC(C)(C)CC2)c1[C@H](OC(C)(C)C)C(=O)O,NL4-3,-,MT-2,luminescence,-,0.116 µM
O=C(C(=O)N1CCN(C(=O)c2ccc(Br)o2)CC1)c1c[nH]c2c(F)ccc(F)c12,-,-,HeLa + HELA CD4+/CCR5,luciferase,-,<10 µM
Cc1ccc(S(=O)(=O)c2ccsc2N)cc1,IIIB,-,CEM + CEM/O,cytopathic effect / MTT,-,12.7 µg/mL
Cc1cc(S(N)(=O)=O)ccc1NC(=O)COc1ccc(Cl)cc1C(=O)c1cc(F)cc(C(F)(F)F)c1,IIIB,RT-K103N V108I,HELA MAGI,luciferase,-,0.0036 µM
COc1cnc(-n2cnc(C)n2)c2c1c(C(=O)C(=O)N1CCN(C(=O)c3ccccc3)CC1)cn2COP(=O)(O)O,NL4-3,M426P,U-87,luciferase,-,0.0099 µM

Conditions beyond the fields shown may differ between rows. ECn is the concentration giving n% inhibition of infection, replication or growth.